A mixed list of measured activities; the numbers were collected in NIAID ChemDB.

All rows: tests in culture; agent: Influenza A virus; endpoint: EC50

ECn is the concentration giving n% inhibition of infection, replication or growth. Neighbouring rows are from separate reports. Two numbers with a dash give a range or band. An empty or dashed field is not shown.

structure,cell line,read by,strain or isolate,result
Cc1ccc(C(=S)NC[C@@]2(C)C[C@@H](O)CC(C)(C)C2)c(C)c1,MDCK,cytopathic effect,H1N1 A/WSN/33,>10 µg/mL
CCC(CC)[C@H](NC(C)=O)[C@@H]1C[C@@H](C(=O)O)C[C@H]1N=C(N)N,MDCK,-,Influenza A/Beijing/32/92 (H3N2),0.14 µM
C[C@H]1CC[C@H]2C(C)(C)[C@@H](O)CC[C@]23Oc2c(c(OCC(=O)O)cc4c2CNC4=O)C[C@]13C,MDBK,-,H1N1 A/WSN/33,7 µM
CC(C)N1C2CCC23CC[C@H](NC(=O)c2cc(Cl)ccc2O)CC13,MDCK,plaque count,H1N1 A/WSN/33 (H1N1),>50 µg/mL
CCC1=C(CC)C2(C)CC[C@@H](C(C)C)C1C2N,MDCK,plaque count,-,>20 µM
CC1(C)C[C@@H](O)C[C@](C)(CNC(=S)c2cccc([N+](=O)[O-])c2)C1,MDCK,cytopathic effect,H1N1 A/WSN/33,>10 µg/mL
O=[N+]([O-])c1c(Cl)nc(C(F)(F)F)nc1N1CC[N+]2(CC1)CC[N+]1(CCN(c3nc(C(F)(F)F)nc(Cl)c3[N+](=O)[O-])CC1)CC2,MDCK,cytopathic effect,-,>70 µg/mL
Nc1ccnc(N)n1,MDCK,plaque count,H1N1 A/PR/8/34,>910 µM
Nc1nc2c(=O)[nH]c(Cl)nc2n1[C@@H]1O[C@H](CO)[C@@H](O)[C@H]1F,CEF,virus yield,Recombinant A/X31,0.1 µM
C=C(N=CC)c1nc(-c2ccc(C)cc2)n(C2O[C@H](CO)[C@@H](O)[C@H](O)[C@H]2O)n1,MDCK,cytopathic effect,Ishikawa,>200 µg/mL
CCC,MDCK,-,CHILE/1/83 (H1),>500 µM
C[C@H]1CC[C@H]2C(C)(C)[C@@H](O)CC[C@]23Oc2c(c(OCc4ccccc4)cc4c2CNC4=O)C[C@]13C,MDBK,-,H1N1 A/WSN/33,0.51 µM
CC1(C)C[C@H](O)C[C@](C)(CNC(=S)c2cccc(C(F)(F)F)c2)C1,MDCK,cytopathic effect,H1N1 A/WSN/33,>10 µg/mL
CC1=C(C)C2C(N)C1CC[C@@H]2C,MDCK,plaque count,-,>20 µM
CSc1nc(Cl)c(C=O)c(N2CC[N+]3(CC2)CC[N+]2(CCN(c4nc(SC)nc(Cl)c4C=O)CC2)CC3)n1,MDCK,cytopathic effect,-,>70 µg/mL
CCC(CC)O[C@@H]1C=C(C(=O)O)C[C@H](N)[C@H]1NC(C)=O,MDCK,plaque count,H1N1 isolate C23D,0.1 µg/mL
CCC(CC)O[C@@H]1C=C(C(=O)O)C[C@H](N)[C@H]1NC(C)=O,MDCK,-,Influenza A/Washington/05/96 (H3N2),0.08 µM
CC(C)C1CC(CO)(CNc2cc(Cl)nc(N)n2)C1,MDCK,plaque count,H1N1 A/PR/8/34,2.1–9.8 µM
CCCC(CCC)C(NC(C)=O)C1C(N=C(N)N)CC(C(=O)O)C1O,MDCK,-,Influenza A/Virginia/2/88R (H3N2),0.03 µM
C[C@H]1C2CCCC(C)(C2N)[C@H]1C,MDCK,plaque count,-,13.4 µM
Cc1nc(Cl)c([N+](=O)[O-])c(N2CC[N+]3(CC2)CC[N+]2(CCN(c4nc(C)nc(Cl)c4[N+](=O)[O-])CC2)CC3)n1,MDCK,cytopathic effect,-,>70 µg/mL
CC(N)C12CC3CC(CC(C3)C1)C2,MDCK,ELISA,Influenza A H3N2 isolate 296,9 µg/mL
O=c1ccn([C@@H]2O[C@H](CO)[C@@H](O)[C@H]2F)c(=O)[nH]1,CEF,virus yield,Recombinant A/X31,>20 µM
CC=NC(=N)c1nc(-c2cccc(OC)c2)n(C/C=C/c2ccccc2)n1,MDCK,cytopathic effect,Ishikawa,>100 µg/mL
Nc1nc2c(ncn2[C@@H]2O[C@H](CO)[C@@H](O)[C@H]2F)c(=O)[nH]1,CEF,virus yield,Recombinant A/X31,0.55 µM
Cc1ccc(O)c(C(=O)NCCCN2[C@H](C)CC[C@@H]3CCCC[C@@H]32)c1,MDCK,plaque count,H1N1 A/WSN/33 (H1N1),>50 µg/mL
CCN(CC)C(=O)N1CCN(c2ncnc(N3CC[N+]4(CC3)CC[N+]3(CCN(c5ncnc(N6CCN(C(=O)N(CC)CC)CC6)c5[N+](=O)[O-])CC3)CC4)c2[N+](=O)[O-])CC1,MDCK,cytopathic effect,-,>70 µg/mL
Nc1nc(Cl)cc(NCCC2(CO)CCC2)n1,MDCK,plaque count,H1N1 A/PR/8/34,>120 µM
C[C@H]1CC[C@H]2C(C)(C)[C@@H](O)CC[C@]23Oc2c(c(O)cc4c2CNC4=O)C[C@]13C,MDBK,-,H1N1 A/WSN/33,0.003 µM
CC(C)N1C2CCC23CC[C@@H](NC(=O)c2cc(Cl)ccc2O)CC13,MDCK,plaque count,H1N1 A/WSN/33 (H1N1),>50 µg/mL
CC12CCCC(CC1)C2N,MDCK,plaque count,-,>25 µM
CC=NC(=N)c1nc(-c2ccc(OC)cc2)n(C/C=C/c2ccccc2)n1,MDCK,cytopathic effect,Ishikawa,>100 µg/mL
CCC(CC)O[C@@H]1C=C(C(=O)O)C[C@H](N)[C@H]1NC(C)=O,MDCK,plaque count,H1N1 A/WSN/33,0.022 µM
CCC1=C(CC)C2CCCC1C2N,MDCK,plaque count,-,>100 µM
CC(=O)N[C@H]1[C@H]([C@H](O)[C@H](O)CO)OC(C(=O)O)=C[C@@H]1N=C(N)N,MDCK,neutral red / visual reading,Influenza A/Sydney/05/97 (H3N2),0.033 µM
Nc1nc(Cl)cc(NCC2(CO)CC(CCc3ccccc3)C2)n1,MDCK,plaque count,H1N1 A/PR/8/34,0.29–1.2 µM
C[C@@H]1CCC[C@H](C)N1CCNC(=O)c1cc(Cl)ccc1O,MDCK,plaque count,H1N1 A/WSN/33 (H1N1),4.5 µg/mL
COc1cc(NCC2(CO)CCC2)nc(N)n1,MDCK,plaque count,H1N1 A/PR/8/34,46–120 µM
CC1(C)C[C@H](O)C[C@](C)(CNC(=S)c2cccc(F)c2)C1,MDCK,cytopathic effect,H1N1 A/WSN/33,>10 µg/mL
CC1=C(C)C2(C)CCCC1C2N,MDCK,plaque count,-,>25 µM
CCOC(=O)c1cnc(SC)nc1N1CC[N+]2(CC1)CC[N+]1(CCN(c3nc(SC)ncc3C(=O)OCC)CC1)CC2,MDCK,cytopathic effect,-,>70 µg/mL
CNc1ncc2ncn([C@@H]3O[C@H](CO)[C@@H](O)[C@H]3F)c2n1,MDCK,plaque count,A/Sweden,>100 µM
CCC(C)N1C2CCC23CC[C@@H](NC(=O)c2cc(Cl)ccc2O)CC13,MDCK,plaque count,H1N1 A/WSN/33 (H1N1),>50 µg/mL
CC1=C(C)C2C(N)C1[C@H](C(C)C)C[C@@H]2C,MDCK,plaque count,-,92 µM
C=C(N=CC)c1nc(-c2ccc(C)cc2)n([C@@H]2O[C@H](CO)[C@@H](O)[C@H]2O)n1,MDCK,cytopathic effect,Ishikawa,>100 µg/mL
C[C@H]1CC2CCCC1C2N,MDCK,plaque count,-,4 µM
N#CNc1nncs1,MDCK,plaque count,A/Port Chalmers/1/73,0.8 µg/mL
CCC(CC)[C@H](NC(C)=O)[C@@H]1[C@H](O)[C@@H](C(=O)O)C[C@H]1N=C(N)N,MDCK,-,Influenza A/Beijing/32/92 (H3N2),0.07 µM
CC=NC(=N)c1nc(-c2cccc(OC)c2)n(Cc2ccccc2)n1,MDCK,cytopathic effect,Ishikawa,>100 µg/mL
Nc1nc(Cl)c(N)c(NCC2(CO)CC(CCCc3ccccc3)C2)n1,MDCK,plaque count,H1N1 A/PR/8/34,0.016–0.027 µM
Nc1nc2c(nc(N)n2[C@@H]2O[C@H](CO)[C@@H](O)[C@H]2F)c(=O)[nH]1,CEF,virus yield,Recombinant A/X31,0.2 µM
Cc1ccc(O)c(C(=O)N[C@H]2CCC34CCC3N(C(C)C)C4C2)c1,MDCK,plaque count,H1N1 A/WSN/33 (H1N1),>50 µg/mL
C=C(N=CC)c1nc(-c2cccc(C)c2)n(C2O[C@H](CO)[C@@H](O)[C@H](O)[C@H]2O)n1,MDCK,cytopathic effect,Ishikawa,>200 µg/mL

Repeating the final 8 entries:

structure,cell line,read by,strain or isolate,result
C[C@H]1CC2CCCC1C2N,MDCK,plaque count,-,4 µM
N#CNc1nncs1,MDCK,plaque count,A/Port Chalmers/1/73,0.8 µg/mL
CCC(CC)[C@H](NC(C)=O)[C@@H]1[C@H](O)[C@@H](C(=O)O)C[C@H]1N=C(N)N,MDCK,-,Influenza A/Beijing/32/92 (H3N2),0.07 µM
CC=NC(=N)c1nc(-c2cccc(OC)c2)n(Cc2ccccc2)n1,MDCK,cytopathic effect,Ishikawa,>100 µg/mL
Nc1nc(Cl)c(N)c(NCC2(CO)CC(CCCc3ccccc3)C2)n1,MDCK,plaque count,H1N1 A/PR/8/34,0.016–0.027 µM
Nc1nc2c(nc(N)n2[C@@H]2O[C@H](CO)[C@@H](O)[C@H]2F)c(=O)[nH]1,CEF,virus yield,Recombinant A/X31,0.2 µM
Cc1ccc(O)c(C(=O)N[C@H]2CCC34CCC3N(C(C)C)C4C2)c1,MDCK,plaque count,H1N1 A/WSN/33 (H1N1),>50 µg/mL
C=C(N=CC)c1nc(-c2cccc(C)c2)n(C2O[C@H](CO)[C@@H](O)[C@H](O)[C@H]2O)n1,MDCK,cytopathic effect,Ishikawa,>200 µg/mL